Compound potency records, mixed from different reports. Data source: NIAID ChemDB in PubChem.

Shared fields: growth or infection tests; species: Mycobacterium smegmatis

Rows are shuffled and stem from different studies. An empty or dashed field is not shown. A number after MIC or MFC names an inhibition level or a share of isolates. Zones are inhibition diameters on agar.

smiles | strain | read by | read-out | tested at | value
Cc1c(N2CC3CCC(N)C3C2)c(F)cn2c(=O)c(C(=O)O)cc(C3CC3)c12.Cl | ATCC114 | - | MIC | - | 0.02 µg/mL
Cc1nn(-c2ccccc2)c2c1C(c1cn(-c3ccccc3)nc1-c1ccc(F)cc1)C1=C(NC(C)(c3cc(O)ccc3Cl)NC1=O)O2 | NCIM 5138 | agar diffusion / agar | zone | 1 mg/mL | 3.2 mm
Cc1c(N2CCC(CN)C2)c(F)cn2c(=O)c(C(=O)O)cc(C3CC3)c12.Cl | ATCC114 | - | MIC | - | 0.1 µg/mL
CC(C)N1CCN(c2cc3c(cc2F)c(=O)c(C(=O)O)cn3C2CC2)CC1 | KD1987 (GYRA A91V) | - | MIC99 | - | 1.5 µg/mL
Cc1nn(-c2ccccc2)c2c1C(c1cn(-c3ccccc3)nc1-c1ccc(F)cc1)C1=C(NC(C)(c3cc(O)c(Cl)c(O)c3)NC1=O)O2 | NCIM 5138 | agar diffusion / agar | zone | 0.1 mg/mL | 4.5 mm
COC1CN(c2c(F)cn3c(=O)c(C(=O)O)cc(C4CC4)c3c2C)CC1N.Cl | ATCC114 | - | MIC | - | 0.2 µg/mL
NCC[C@H](O)C(=O)N[C@@H]1C[C@H](N)[C@@H](O[C@H]2O[C@H](CN)[C@@H](O)[C@H](O)[C@H]2O)[C@H](O)[C@H]1O[C@H]1O[C@H](CO)[C@@H](O)[C@H](N)[C@H]1O | A24185 | - | MIC | - | >128 µg/mL
CCN1CCN(c2c(F)cc3c(=O)c(C(=O)O)cn(C4CC4)c3c2F)CC1 | KD1987 (GYRA A91V) | - | MIC99 | - | 0.97 µg/mL
Cc1c(N2C[C@@H]3CCC[C@H](N)[C@H]3C2)c(F)cn2c(=O)c(C(=O)O)cc(C3CC3)c12.Cl | ATCC114 | - | MIC | - | 0.1 µg/mL
COc1c(N2CC(C)NC(C)C2)c(F)cc2c(=O)c(C(=O)O)cn(C3CC3)c12 | KD1991 (GYRA D95Y) | - | MIC99 | - | 0.51 µg/mL
COc1ccc(-c2nn(-c3ccccc3)cc2C2C3=C(NC(C)(c4cc(O)ccc4Cl)NC3=O)Oc3c2c(C)nn3-c2ccccc2)cc1 | NCIM 5138 | agar diffusion / agar | zone | 0.1 mg/mL | 2.8 mm
O=C(O)c1cn(C2CC2)c2c(F)c(N3CCNCC3)c(F)cc2c1=O | KD1987 (GYRA A91V) | - | MIC99 | - | 0.54 µg/mL
Cc1c(F)c(N2CCC(N)C2)cc2c(C3CC3)cc(C(=O)O)c(=O)n12.Cl | ATCC114 | - | MIC | - | 1.56 µg/mL
CCC1CN(c2cc3c(cc2F)c(=O)c(C(=O)O)cn3C2CC2)CCN1 | KD2003 (GYRA D95G) | - | MIC99 | - | 3.8 µg/mL
Cc1nn(-c2ccccc2)c2c1C(c1cn(-c3ccccc3)nc1-c1ccc(Cl)cc1)C1=C(NC(C)(c3cc(O)c(Cl)c(O)c3)NC1=O)O2 | NCIM 5138 | agar diffusion / agar | zone | 0.1 mg/mL | 3.8 mm

Repeating the first 2 entries:

smiles	strain	read by	read-out	tested at	value
Cc1c(N2CC3CCC(N)C3C2)c(F)cn2c(=O)c(C(=O)O)cc(C3CC3)c12.Cl	ATCC114	-	MIC	-	0.02 µg/mL
Cc1nn(-c2ccccc2)c2c1C(c1cn(-c3ccccc3)nc1-c1ccc(F)cc1)C1=C(NC(C)(c3cc(O)ccc3Cl)NC1=O)O2	NCIM 5138	agar diffusion / agar	zone	1 mg/mL	3.2 mm